The target in this assay is Thioredoxin reductase (Plasmodium falciparum 3D7, UniProt P61076).

Amino acid sequences for entries named in this document (tags omitted). A change or cut given only in a name is not applied to a line headed by its entry.
UniProt P61076: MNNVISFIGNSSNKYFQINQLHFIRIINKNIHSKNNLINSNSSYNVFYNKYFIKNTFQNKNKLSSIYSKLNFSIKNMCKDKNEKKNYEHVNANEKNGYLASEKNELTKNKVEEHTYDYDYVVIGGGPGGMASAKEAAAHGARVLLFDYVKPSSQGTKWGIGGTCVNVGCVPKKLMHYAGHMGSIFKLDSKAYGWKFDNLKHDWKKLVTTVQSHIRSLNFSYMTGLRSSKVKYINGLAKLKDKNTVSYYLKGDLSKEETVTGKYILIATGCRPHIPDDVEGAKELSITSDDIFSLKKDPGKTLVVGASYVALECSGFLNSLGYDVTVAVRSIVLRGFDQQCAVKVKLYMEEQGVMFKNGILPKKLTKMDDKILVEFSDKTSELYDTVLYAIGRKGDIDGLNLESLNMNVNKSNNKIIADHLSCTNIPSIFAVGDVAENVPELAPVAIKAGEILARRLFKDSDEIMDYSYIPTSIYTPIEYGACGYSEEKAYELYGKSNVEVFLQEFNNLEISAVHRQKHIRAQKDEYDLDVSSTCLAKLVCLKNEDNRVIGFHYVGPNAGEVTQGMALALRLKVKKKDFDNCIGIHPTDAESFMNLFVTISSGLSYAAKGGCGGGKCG

Each structure is given as a SMILES string.

Take `O=[N+]([O-])c1cc([N+](=O)[O-])c2nsnc2c1`: the IC50 was 10 µM.

In general, IC50 refers to the point on the concentration scale where inhibition reaches its midpoint. A high value points to weaker potency.
